Results of unrelated studies side by side (data: NIAID ChemDB).

Shared fields: tests on isolated targets; organism: Hepatitis C virus

Neighbouring rows are from separate reports. Two numbers with a dash give a range or band. An empty or dashed field is not shown. Percent inhibition refers to the dose given; in toxicity tests it is the harm to the cells. ICn is the concentration giving n% inhibition.

smiles	target	endpoint	tested at	value
CC[C@@H](C=O)NC(=O)[C@@H]1C[C@@H](OC(=O)Nc2ccc3c(c2)OCO3)CN1C(=O)[C@@H](NC(=O)[C@@H](NC(=O)c1cnccn1)C(C)C)C(C)C	NS3 protease	Ki	-	1–100 µM
COCCOc1cccc(-c2ccc3cc(-c4nc5cc(C(=O)O)ccc5n4C4CCCCC4)ccc3n2)c1	NS5B polymerase	inhibition	33 µM	96.88%
Cc1cc(S(=O)(=O)Nc2ccccc2-c2nc(C(=O)O)c(O)c(=O)[nH]2)c(C)cc1Cl	HCV polymerase	IC50	-	<100 µM
O=C(O)CC(NC(=O)c1ccc2c(c1)nc(-c1ccc3nc(-c4ccccc4)cnc3c1)n2C1CCCCC1)C(=O)O	NS5B polymerase	inhibition	100 µM	97.02%
CCN(c1cc2oc(-c3ccc(F)cc3)c(C(=O)NC)c2cc1OCc1cccc2c1C(=O)OC(C)(C)O2)S(C)(=O)=O	Nonstructural protein 5B	IC50	-	≤0.5 µM
O=C(O)C1CCCN1C(=O)c1ccc2c(c1)nc(-c1ccc3nc(-c4ccccc4)ccc3c1)n2C1CCCCC1	NS5B polymerase	inhibition	100 µM	88.16%
CC[C@@H](C=O)NC(=O)[C@@H]1C[C@@H](OCc2csc3ccc(Cl)cc23)CN1C(=O)[C@@H](NC(=O)[C@@H](NC(=O)c1cnccn1)C(C)C)C(C)C	NS3 protease	Ki	-	1–100 µM
CNC(=O)c1c(-c2ccc(F)cc2)oc2cc(N3CCOCC3)c(OCCC#N)cc12	Nonstructural protein 5B	IC50	-	≤0.5 µM
COc1cc(OC)cc(-c2ccc3cc(-c4nc5cc(C(=O)O)ccc5n4C4CCCCC4)ccc3n2)c1	NS5B polymerase	inhibition	100 µM	101%
CC[C@@H](C=O)NC(=O)[C@@H]1C[C@@H](OCc2ccccc2)CN1C(=O)[C@@H](NC(=O)[C@H](Cc1ccc(O)cc1)NC(=O)c1cnccn1)C(C)C	NS3 protease	Ki	-	1–100 µM
CN(c1ccccc1)c1cc(-c2ccc(Cl)cc2)nc2cc(C(=O)O)nn12	RNA-dependent RNA polymerase	IC50	-	>10 µM
O=C(Cn1nc(-c2ccccc2)cc1-c1ccccc1)Nc1ccsc1-c1nc(C(=O)O)c(O)c(=O)[nH]1	HCV polymerase	IC50	-	<25 µM
C=CCc1c(-c2ccc(OCc3ccccc3)cc2)nc2cc(C(=O)O)[nH]n2c1=O	RNA-dependent RNA polymerase	IC50	-	>10 µM
CC[C@@H](C=O)NC(=O)[C@@H]1C[C@@H](OCc2ccccc2)CN1C(=O)[C@@H](NC(=O)COc1ccccc1C=O)C(C)C	NS3 protease	Ki	-	>100 µM
CCS(=O)(=O)Nc1cnn2c(C3CCCCC3)c(-c3ccc(OCc4ccccc4)cc3)cnc12	RNA-dependent RNA polymerase	IC50	-	>10 µM
O=C(O)CCC(NC(=O)c1ccc2c(c1)nc(-c1ccc3nc(-c4ccccc4)ccc3c1)n2C1CCCCC1)C(=O)O	NS5B polymerase	inhibition	33 µM	79.74%
Cc1nc(C)c(COc2ccc(-c3cnc4c(-c5nn[nH]n5)cnn4c3C3CCCCC3)cc2)s1	RNA-dependent RNA polymerase	IC50	-	<1 µM
CNC(=O)c1c(-c2ccc(F)cc2)oc2cc(N(Cc3csc(C)n3)S(C)(=O)=O)c(OC(C)C)cc12	Nonstructural protein 5B	IC50	-	≤0.5 µM
COc1ccc(-c2ccco2)c(-c2ccc3cc(-c4nc5cc(C(=O)O)ccc5n4C4CCCCC4)ccc3n2)c1	NS5B polymerase	inhibition	100 µM	101%
CC(C)(C)NC(=O)Nc1cccc(-c2nc(C(=O)O)c(O)c(=O)[nH]2)c1	HCV polymerase	IC50	-	<100 µM
O=C(O)c1ccc2c(c1)nc(-c1ccc3nc(-c4cc(O)ccc4-c4ccc(Cl)cc4)ccc3c1)n2C1CCCCC1	NS5B polymerase	inhibition	100 µM	101%
O=C(CN1CCC(Cc2ccccc2)CC1)Nc1ccsc1-c1nc(C(=O)O)c(O)c(=O)[nH]1	HCV polymerase	IC50	-	<25 µM
O=C(O)c1cc2nc(-c3ccc(Cl)cc3)cc(-c3ccc(-c4ccccc4)cc3)n2n1	RNA-dependent RNA polymerase	IC50	-	1–10 µM
CNC(=O)c1c(-c2ccc(F)cc2)oc2cc(S(=O)(=O)NC3CC3)c(OC(C)C)cc12	Nonstructural protein 5B	IC50	-	≤0.5 µM
CCc1ccc(S(=O)(=O)Nc2ccccc2-c2nc(C(=O)O)c(O)c(=O)[nH]2)cc1	HCV polymerase	IC50	-	<100 µM
COc1ccc(-c2ccc(Cl)cc2)c(-c2ccc3cc(-c4nc5cc(C(=O)O)ccc5n4C4CC(C)CC(C)(C)C4)ccc3n2)c1	NS5B polymerase	inhibition	100 µM	101%
O=C(O)c1cnn2c(-c3cccc(-c4cccc(Cl)c4)c3)ccnc12	RNA-dependent RNA polymerase	IC50	-	1–10 µM
O=C(NCCc1ccccc1F)Nc1ccsc1-c1nc(C(=O)O)c(O)c(=O)[nH]1	HCV polymerase	IC50	-	<25 µM
COc1ccc(-c2cc(-c3ccc(OCc4ccccc4)cc3)nc3cc(C(=O)O)nn23)cc1Cl	RNA-dependent RNA polymerase	IC50	-	1–10 µM
O=C(NCc1cc2ccccc2s1)Nc1ccsc1-c1nc(C(=O)O)c(O)c(=O)[nH]1	HCV polymerase	IC50	-	<25 µM

For reference, 3 entries again:

smiles	target	endpoint	tested at	value
CC[C@@H](C=O)NC(=O)[C@@H]1C[C@@H](OCc2ccccc2)CN1C(=O)[C@@H](NC(=O)[C@H](Cc1ccc(O)cc1)NC(=O)c1cnccn1)C(C)C	NS3 protease	Ki	-	1–100 µM
O=C(O)c1cc2nc(-c3ccc(Cl)cc3)cc(-c3ccc(-c4ccccc4)cc3)n2n1	RNA-dependent RNA polymerase	IC50	-	1–10 µM
O=C(O)CCC(NC(=O)c1ccc2c(c1)nc(-c1ccc3nc(-c4ccccc4)ccc3c1)n2C1CCCCC1)C(=O)O	NS5B polymerase	inhibition	33 µM	79.74%